PubChem BioAssay AID504761 – Drosophila RNAi Screening Center, 2011
The deposit covers about 22,000 reagents; this is a random part of those that have a named target and a result. Of all reagents, 116 (0.52%) are marked active. 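Calls depend on retest data that are not deposited; infection was ranked per plate without normalising between plates; the unit of the infection score is not given.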 The raw values are shown without normalisation. Unmarked entries are inactive. The numbers tell different reagents against one gene apart. A plus sign joins genes that one reagent is predicted to hit. Not given: the amount of reagent, the time to read-out.

Screen: 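Insect host genes that dengue virus relies on to spread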 (primary screen)
Cells: D.Mel-2 cells from Drosophila
Reagent: long dsRNA against Drosophila genes
Challenge: infection with dengue virus type 2; dose and infection time not stated
Detection: 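Cells stained for dengue envelope protein and imaged; percent of infected cells per well on duplicate plates, ranked by infection, with stained nuclei counted for cell number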
Reading the numbers: infection score: higher = more virus-infected cells; cell count: higher = more cells in the well
Rule for the call: 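Low infection ranks in the two replicates (chance level up to 0.065) followed by a retest with a 1.5-fold or larger significant decrease, p below 0.05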
Meaning of the calls: active = confirmed: knock-down lowers infection; inactive = not picked or not confirmed

no.	gene	reagent no.	infection score, replicate 1	infection score, replicate 2	cell count, replicate 1	cell count, replicate 2
1	Mettl4 + CG14907	1	2.47	1.51	6357	6573
2	CG8329 (GeneID 39123)	1	11	2.73	4719	1027
3	CG8329 (GeneID 39123)	2	10.2	6.83	6126	6029
4	CG15629 (GeneID 33679)	1	8.1	16.8	6891	6414
5	CG15629 (GeneID 33679)	2	14	8.04	4867	3982
6	Grik (GeneID 42476)	1	3.23	5.37	6402	6685
7	Grik (GeneID 42476)	2	2.16	7.39	6947	5659
8	Grik (GeneID 42476)	3	2.36	1.24	6136	6290
9	ClC-c (GeneID 39759)	1	9.64	3.22	3038	6176
10	Cyp6a14 (retired record) (GeneID 8674017)	1	20.6	14.5	6546	2446
11	Cyp6a14 (retired record) (GeneID 8674017)	2	2.3	0.45	6270	6026
12	Or85e (retired record) (GeneID 3772269)	1	11.5	23.2	6620	6189
13	Mst77F (GeneID 40304)	1	8.46	6.44	6180	6332

Copied from the list.
Value of Or85e (retired record) (GeneID 3772269) in “cell count, replicate 2”: 6189
Entry for CG8329 (GeneID 39123) #2 under “infection score, replicate 1”: 10.2
Grik (GeneID 42476) #2, cell count, replicate 2: 5659
For “cell count, replicate 1”, CG15629 (GeneID 33679) #1 shows 6891
Under “infection score, replicate 2”, Grik (GeneID 42476) #3 shows 1.24
Value for Cyp6a14 (retired record) (GeneID 8674017) #2 in “cell count, replicate 1”: 6270

Further results follow.
no.	gene	reagent no.	infection score, replicate 1	infection score, replicate 2	cell count, replicate 1	cell count, replicate 2
14	Mes2 (GeneID 40514)	1	0.57	0.13	5129	5331
15	Mes2 (GeneID 40514)	2	9.07	11.4	5621	4761
16	en (GeneID 36240)	1	6.71	3.28	6651	6198
17	en (GeneID 36240)	2	1.5	2.15	6085	5570
18	CG3285 (GeneID 33547)	1	6.47	2.76	6487	6704
19	Cad89D (GeneID 42006)	1	2.79	1.3	6351	6397
20	CG8460 (GeneID 34115)	1	4.31	6.23	6215	6533
21	CG31459 (GeneID 318746)	1	1.85	1.1	5771	5356
22	sle (GeneID 41262)	1	16	23.5	5110	5004
23	EMC5 (GeneID 35159)	1		5.47	596	6970
24	CG42380 + CG42379 + PIG-M + 1 more	1	1.56	1.11	5454	5665
25	CG42380 + CG42379 + PIG-M + 1 more	2	11.9	24.7	6529	6412
26	orb2 (GeneID 39018)	1	6.15	13.8	6143	5696
27	orb2 (GeneID 39018)	2	1.94	2.43	6766	6621
28	orb2 (GeneID 39018)	3	5.79	9.45	6457	6401
29	orb2 (GeneID 39018)	4	2.84	1.17	6410	6231
30	Nep2 (GeneID 40588)	1	6.12	12.6	6770	5958
31	Nep2 (GeneID 40588)	2	3.38	1.41	6219	6738
32	dsb (GeneID 38252)	1	2.86	2.34	6323	6490
33	sit (GeneID 42658)	1	18.5	7.49	2887	4555
34	sit (GeneID 42658)	2	20.5	1.49	5720	6112
35	Cog8 (GeneID 34571)	1	13.1	11.8	6444	5627
36	Iyd (GeneID 39242)	1	3.32	1.83	6032	5859
37	Iyd (GeneID 39242)	2	4.54	8.32	5754	6200
38	Grip84 (GeneID 32946)	1	16.9	21.1	6522	6885
39	Grip84 (GeneID 32946)	2	19.5	10.1	5291	5932
